Source: ChEMBL document CHEMBL3137667, “[Drug-induced liver injury; fourteenth updated edition of the bibliographic database of liver injuries and related drugs]” (Gastroenterol Clin Biol, 2004)

Assays:
[1] = human
[2] = human; remark: listed apart in the source
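For Hepatotoxicity (granulomatous hepatitis) in this document: value is a count of indexed literature references reporting granulomatous liver disease confirmed by histopathology.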
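For Hepatotoxicity (severe hepatitis) in this document: human clinical data: severe hepatitis, meaning potentially life-threatening liver failure or clinically observed cases, the value counts how many indexed literature references report it.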

Sequence: FLUPENTIXOL
- Hepatotoxicity (severe hepatitis) [1]: 1
- Hepatotoxicity (granulomatous hepatitis) [2]: 0
